Compound potency records, mixed from different reports. Data source: NIAID ChemDB in PubChem.

Shared fields: whole-cell or culture tests; agent: Mycobacterium tuberculosis

Blank or dashed fields: not listed here.

SMILES,method,mutations,strain or isolate,measure,tested at,cells,value
C1CCCC(NCCNCC23CC4CC(CC(C4)C2)C3)CCC1,,,H37Rv,MIC,,,1 µM
CC(C)[C@H]1CC[C@H]2[C@@H]3C=C[C@](C)(O)CC[C@]3(C)CC[C@]12C(=O)O,visual reading / absorbance,,H37Rv,MIC,,,312 µM
CCOc1cc2oc3cc(O)c(CCC(C)C)c(O)c3c(=O)c2c(CCC(C)C)c1OC,resazurin,,M-3,MIC,,,1.56 µg/mL
CC1=CC[C@]2(C)CC[C@]3(C(=O)O)[C@@H](C(C)C)CC[C@H]3[C@@H]2C=C1,visual reading / absorbance,,H37Rv,MBC,,,165.3 µM
Nc1ccc2c(n1)NCC/C2=N\Nc1ccccc1,BACTEC,,H37Rv,MIC bound,,,≤12.5 µg/mL
CC1SC(c2ccccc2)=NC(C)(O)C1C,,,H37Rv,inhibition,6.25 µg/mL,,0%
NNC(=O)c1ccncc1,,,H37Rv,MIC,,,0.05 µg/mL
OC12CCCC(C1)SC(c1ccccc1)=N2,,,H37Rv,inhibition,6.25 µg/mL,,97%
COc1cccc2c1C(=O)c1c(O)c3c(c(O)c1C2=O)C[C@@](O)(/C(C)=N/NC(=O)c1ccc(Cl)cc1)C[C@H]3O[C@H]1C[C@H](N)[C@H](O)[C@H](C)O1,BACTEC,,H37Rv,MIC bound,,,≤12.5 µg/mL
O=C(N/N=C/c1ccccc1[N+](=O)[O-])c1sc2ccc(Oc3ccccc3)cc2c1Cl,,,H37Rv,inhibition,6.25 µg/mL,,0%
COc1cc2oc3cc(=O)/c(=C(\C)O)c(CCC(C)C)c3c(O)c2c(=O)c1CCC(C)C,resazurin,,H37Ra,MIC,,,12.5 µg/mL
O=C(NCCCl)N1CCC(CN=c2cc3n(-c4ccc(Cl)cc4)c4ccccc4nc-3cc2Nc2ccc(Cl)cc2)CC1,,,EMB-R,MIC,,,0.2 µg/mL
CCc1nc2ccccc2c2nc3cc4ccccc4cc3n12,resazurin,,H37Rv,MIC99,,,25 µg/mL
COc1ccccc1CCNCCN[C@@H]1C[C@@H]2C[C@H]([C@H]1C)C2(C)C,,,H37Rv,MIC,,,5 µM
C[C@@H]1CN(c2c(F)c(N)c3c(=O)c(C(=O)O)cn(C4CC4)c3c2F)C[C@H](C)N1,,,H37Rv,MIC,,,0.2 µg/mL
FC(F)(F)c1nc2nc(Cl)c(Cl)nc2s1,resazurin,,H37Rv,MIC bound,,,>6.25 µg/mL
CC(C)(C)C1CCc2c(sc3nc(SCC(N)=O)nc(N)c23)C1,MTT,,H37Rv,MIC,,,36 µM
C=C(CO)C(=O)OC1CC(=C)C2CC(O)C(=C)C2C2OC(=O)C(=C)C12,BACTEC,,H37Rv,inhibition,12.5 µg/mL,,12%
CCCCc1nc2ccc(Br)cc2c2nc3ccccc3n12,resazurin,,H37Rv,MIC99,,,3.125 µg/mL
COc1cc2oc3cc(OC(C)=O)c(CCC(C)C)c(O)c3c(=O)c2c(CCC(C)C)c1OC,resazurin,,H37Ra,MIC,,,100 µg/mL
NNC(=O)c1ccncc1,,,PR1499,MIC,,,0.16 µg/mL
CC1(O)CCSC(c2ccccc2)=N1,,,H37Rv,inhibition,6.25 µg/mL,,19%
CC(C)(C)c1cc(C(C)(C)C)c2oc(-c3cccc(Cl)c3)nc2c1,BACTEC,,H37Rv,inhibition,6.25 µg/mL,,<90%
C=CCOc1cc2oc3cc(O)c(CCC(C)C)c(O)c3c(=O)c2c(CCC(C)C)c1OC,resazurin,,H37Ra,MIC,,,0.78 µg/mL
Nc1ccc(C(=O)O)c(O)c1,,,Clinical isolate 5,MIC,,,0.2 µg/mL
CC(C)(C)c1cc(C(C)(C)C)c2oc(-c3ccncc3)nc2c1,,,H37Rv,MIC,,,32 µg/mL
Cc1ccc(NC(=O)OC(C)C)cc1Cl,BACTEC,,H37Rv,inhibition,12.5 µg/mL,,31%
C=C(C)CC[C@H]1CN(c2ccn(N3CCOCC3)c2)C(=O)O1,,,ATCC 35820 (streptomycin-resistant),MIC90,,,>100 µM
O=c1[nH]c(=O)n([C@@H]2O[C@H](CO)[C@@H](O)[C@H]2O)o1,BACTEC,,H37Rv,MIC bound,,,>12.5 µg/mL
CSc1ccc(C2C(Cl)C(=O)C2NC(=O)c2sc3ccc(Oc4ccccc4)cc3c2Cl)cc1,,,H37Rv,inhibition,6.25 µg/mL,,12%
CCC(C)CO[C@@H]1CC(C)(C)C[C@H]2C3=CC[C@@H]4[C@]56CCC(O)(OC5)C(C)(C)[C@@H]6CC[C@@]4(C)[C@]3(C)CC[C@@]12C(=O)O,,,H37Rv,MIC,,,73 µg/mL
CCCc1nc2ccc(C)cc2c2nc3ccccc3n12,resazurin,,H37Rv,MIC99,,,0.4 µg/mL
N=C1C=C(N)C(=O)c2[nH]c(=O)ccc21,BACTEC,,H37Rv,MIC,,VERO,12.5 µg/mL
N[C@@H]1CONC1=O,,,H37Rv,MIC,,,10 µg/mL
CC(=O)Oc1cc2oc3cc(OC(C)=O)c(C(C)=O)c(CC=C(C)C)c3c(=O)c2c(O)c1CC=C(C)C,resazurin,,H37Ra,MIC,,,12.5 µg/mL
CCOC(=O)C(=O)NNc1ccc([N+](=O)[O-])cc1,,,BCG,MIC,,,0.03 µg/mL
CC1(C)[C@H]2CC[C@@H](CNCCNC3CCCCCCC3)[C@@H]1C2,,,H37Rv,MIC,,,1 µM
CN(C)c1ccc(CC(=O)N2COC(c3sc4ccc(Oc5ccccc5)cc4c3Cl)=N2)cc1,,,H37Rv,inhibition,6.25 µg/mL,,4%
NC1=NC(=O)/C(=C/C=C/c2ccc([N+](=O)[O-])o2)S1,MTT,,H37Rv,MIC,,,9 µM
CCc1nc2ccccc2n1CCCCOc1ccc(C)c(Cl)c1,turbidity / fluorescence,,H37Rv-MA cydC::aph,MIC90,,,0.18 µM
COc1c(O)cc2oc3cc(O)c(CCC(C)C)c(O)c3c(=O)c2c1CCC(C)C,resazurin,MDR,M5,MIC,,,1.56 µg/mL
Cc1nsc(N(NC(=O)c2ccccc2)C(=O)c2ccccc2)n1,BACTEC,,H37Rv,MIC bound,,,>12.5 µg/mL
CC(C)(C)c1cc(C(C)(C)C)c2oc(-c3ccccn3)nc2c1,BACTEC,,H37Rv,inhibition,6.25 µg/mL,,79%
CC(C)C1CC(C)(O)N=C(c2ccccc2)S1,,,H37Rv,inhibition,6.25 µg/mL,,0%
O=C(N/N=C/c1ccc(Cl)cc1)c1sc2ccc(Oc3ccccc3)cc2c1Cl,,,H37Rv,inhibition,6.25 µg/mL,,10%
CC(C)(C)c1cc(C(C)(C)C)c2oc(-c3ccccc3O)nc2c1,BACTEC,,H37Rv,inhibition,6.25 µg/mL,,70%
CN(C)c1ccc(C2C(Cl)C(=O)C2NC(=O)c2sc3ccc(Oc4ccccc4)cc3c2Cl)cc1,,,H37Rv,inhibition,6.25 µg/mL,,0%
CCOC(=O)CSc1nc(N)c2c3c(sc2n1)CCCC3,MTT,,H37Rv,MIC,,,5 µM
CC(=O)N=C1N(/C=C2\C(=O)Oc3ccccc3C2=O)C(=O)/C(=C/c2ccc(OC(C)=O)cc2)N1C,BACTEC,,H37Rv,MIC bound,,,>12.5 µg/mL
CC1=CC[C@]2(C)CC[C@]3(C=O)[C@@H](C(C)C)CC[C@H]3[C@@H]2C=C1,visual reading / absorbance,,H37Rv,MBC,,,10.9 µM
O=C1C=C(Nc2ccc([N+](=O)[O-])cc2)c2ccccc2C1=O,resazurin,,H37Rv,MIC bound,,,>6.25 µg/mL
CN(C)c1ccc(-c2nc3cc(C(C)(C)C)cc(C(C)(C)C)c3o2)cc1,BACTEC,,H37Rv,MIC,,,>6.25 µg/mL
COc1nc2ccc(Br)cc2cc1[C@@H](c1ccccc1)[C@@](O)(CCN(C)C)c1cccc2ccccc12,turbidity / fluorescence,,H37Rv-MA,MIC90,,,0.7 µM
Clc1ccc(C2NC(c3ccccc3)c3c(ccc4ccccc34)O2)cc1Cl,BACTEC,,H37Rv,inhibition,12.5 µg/mL,,37%
c1ccc(C(CCNCCN[C@H]2C[C@@H]3CC[C@H]2C3)c2ccccc2)cc1,,,H37Rv,MIC,,,1 µM
CC1=CC[C@]2(C)CC[C@]3(CO)[C@@H](C(C)C)CC[C@H]3[C@@H]2C=C1,visual reading / absorbance,,H37Rv,MBC,,,5.4 µM
CC(C)=CCO[C@@H]1CC(C)(C)C[C@H]2C3=CC[C@@H]4[C@]56CCC(O)(OC5)C(C)(C)[C@@H]6CC[C@@]4(C)[C@]3(C)CC[C@@]12C(=O)O,,,H37Rv,MIC,,,73 µg/mL
NNC(=O)C1CCCNC1,,,BCG,MIC,,,2 µg/mL
O=C(NC1C(=O)C(Cl)C1c1cccc(Br)c1)c1sc2ccc(Oc3ccccc3)cc2c1Cl,,,H37Rv,inhibition,6.25 µg/mL,,0%
CC(C)/C=N/NC(=O)C1CCNCC1,,,BCG,MIC,,,0.1 µg/mL
CN1CC(=O)NC2C(=CN(Cc3ccccc3)c3ccccc32)C1=O,BACTEC,,H37Rv,MIC bound,,,>12.5 µg/mL
C1CCCC(NCCNC2C3CC4CC(C3)CC2C4)CCC1,,,H37Rv,MIC,,,6 µM
CC(C)(C)c1cc(C(C)(C)C)c2oc(-c3ccccc3)nc2c1,BACTEC,,H37Rv,inhibition,6.25 µg/mL,,<90%
CC1CN(c2c(F)cc3c(=O)c(C(=O)O)cn(C4CC4)c3c2O)CCN1.[Cl][Rh]([Cl])[Cl],agar diffusion,,ATCC 27294,zone,0.2 µg/mL,,15 mm
COc1ccc(C2C(Cl)C(=O)C2NC(=O)c2sc3ccc(Oc4ccccc4)cc3c2Cl)cc1,,,H37Rv,inhibition,6.25 µg/mL,,2%
CCc1nc2ccccc2n1CCCCSc1nc(-c2ccccc2)cs1,turbidity / fluorescence,,H37Rv-LP,MIC90,,,1.1 µM
CC(O)CSc1nc(N)c2c3c(sc2n1)CC(C)CC3,MTT,,H37Rv,MIC,,,160 µM
CC1Oc2ccccc2NC1=O,BACTEC,,H37Rv,MIC bound,,,>12.5 µg/mL
CN[C@@H]1[C@H](O[C@H]2[C@H](O[C@H]3[C@H](O)[C@@H](O)[C@H](N=C(N)N)[C@@H](O)[C@@H]3N=C(N)N)O[C@@H](C)[C@]2(O)C=O)O[C@@H](CO)[C@H](O)[C@H]1O,resazurin,MDR,M5,MIC,,,>8 µg/mL
O=C(CSC(=S)N1CCCCC1)c1ccccc1,BACTEC,,H37Rv,MIC,,,≥128 µg/mL
Cc1nc2ccccc2c2nc3cc4ccccc4cc3n12,resazurin,,H37Rv,MIC99,,,6.25 µg/mL
C1CC[N+]2(CC1)CCCCC2.NC(=S)[S-],,,TAC-R,MIC,,,0.8 µg/mL
CC(=O)NC1CCC(/C=N\NC(=O)C2CCNCC2)CC1,,,BCG,MIC,,,0.08 µg/mL
C[C@@H]1CN(c2c(F)c(N)c3c(=O)c(C(=O)O)cn(C4CC4)c3c2F)C[C@H](C)N1,,,18 strains,MIC50,,,0.25 µg/mL
COC(=O)C1=CO[C@@H](C)[C@@H]2CN3CCc4c([nH]c5cc(OC)c(OC)cc45)[C@H]3C[C@H]12.O=C(O)C(=O)O,BACTEC,,H37Rv,inhibition,12.8 µg/mL,,13%
CC(C)N=c1cc2n(-c3ccc(Cl)cc3)c3ccccc3nc-2cc1Nc1ccc(Cl)cc1,turbidity / fluorescence,,H37Rv-MA cydC::aph,MIC90,,,0.19 µM
Brc1ccc2ncn3c4ccccc4nc3c2c1,resazurin,,H37Rv,MIC99,,,3.125 µg/mL
CC(NC(=O)C(Cc1c[nH]c2ccccc12)NC(=O)OC(C)(C)C)C(=O)NN,BACTEC,,H37Rv,MIC bound,,,>12.5 µg/mL
COc1ccc(CC(=O)N2COC(c3sc4ccc(Oc5ccccc5)cc4c3Cl)=N2)cc1,,,H37Rv,inhibition,6.25 µg/mL,,3%
C/C(=C/CO)CCC[C@H](C)CCC[C@H](C)CCCC(C)C,,,H37Rv,MIC,,,2 µg/mL
CCC(CO)NCCNC1CCC1,,,H37Rv,MIC,,,150 µM
Cc1ccc(N=Nc2c(C)nn(C(=S)S)c2C)cc1,BACTEC,,H37Rv,MIC,,,≥12.5 µg/mL
C/C(=C\CO)CCC[C@H](C)CCC[C@H](C)CCCC(C)C,,,H37Rv,inhibition,33 µg/mL,,63%
Cc1ccc(S(=O)(=O)N/N=C(\CC(=O)c2c(C)n([O-])c3ccccc3[n+]2=O)C(=O)Nc2ccc(C)c(C)c2)cc1,BACTEC,,H37Rv,inhibition,12.5 µg/mL,,68%
NNC(=O)c1ccncc1,,,PMH29:inhA,MIC,,,0.05 µg/mL

The last 11 rows once more:

SMILES	method	mutations	strain or isolate	measure	tested at	cells	value
COC(=O)C1=CO[C@@H](C)[C@@H]2CN3CCc4c([nH]c5cc(OC)c(OC)cc45)[C@H]3C[C@H]12.O=C(O)C(=O)O	BACTEC		H37Rv	inhibition	12.8 µg/mL		13%
CC(C)N=c1cc2n(-c3ccc(Cl)cc3)c3ccccc3nc-2cc1Nc1ccc(Cl)cc1	turbidity / fluorescence		H37Rv-MA cydC::aph	MIC90			0.19 µM
Brc1ccc2ncn3c4ccccc4nc3c2c1	resazurin		H37Rv	MIC99			3.125 µg/mL
CC(NC(=O)C(Cc1c[nH]c2ccccc12)NC(=O)OC(C)(C)C)C(=O)NN	BACTEC		H37Rv	MIC bound			>12.5 µg/mL
COc1ccc(CC(=O)N2COC(c3sc4ccc(Oc5ccccc5)cc4c3Cl)=N2)cc1			H37Rv	inhibition	6.25 µg/mL		3%
C/C(=C/CO)CCC[C@H](C)CCC[C@H](C)CCCC(C)C			H37Rv	MIC			2 µg/mL
CCC(CO)NCCNC1CCC1			H37Rv	MIC			150 µM
Cc1ccc(N=Nc2c(C)nn(C(=S)S)c2C)cc1	BACTEC		H37Rv	MIC			≥12.5 µg/mL
C/C(=C\CO)CCC[C@H](C)CCC[C@H](C)CCCC(C)C			H37Rv	inhibition	33 µg/mL		63%
Cc1ccc(S(=O)(=O)N/N=C(\CC(=O)c2c(C)n([O-])c3ccccc3[n+]2=O)C(=O)Nc2ccc(C)c(C)c2)cc1	BACTEC		H37Rv	inhibition	12.5 µg/mL		68%
NNC(=O)c1ccncc1			PMH29:inhA	MIC			0.05 µg/mL

MIC50, MIC90 and the like: level of inhibition, or share of isolates inhibited. Neighbouring rows are from separate reports. Inhibition is in % at the dose shown (toxicity tests: loss of growth or viability). MIC bound: limit read from a one-dose screen. Zones are inhibition diameters on agar.